Data on one compound can be found in patent US11439622B2 (OXFORD UNIVERSITY INNOVATION LIMITED, priority 2015, dated 2022).

Protein sequences, listed by entry. Tags and fused reporters are not part of them. Residues count along the entry.
UniProt P52699, 19-246 limits assumed: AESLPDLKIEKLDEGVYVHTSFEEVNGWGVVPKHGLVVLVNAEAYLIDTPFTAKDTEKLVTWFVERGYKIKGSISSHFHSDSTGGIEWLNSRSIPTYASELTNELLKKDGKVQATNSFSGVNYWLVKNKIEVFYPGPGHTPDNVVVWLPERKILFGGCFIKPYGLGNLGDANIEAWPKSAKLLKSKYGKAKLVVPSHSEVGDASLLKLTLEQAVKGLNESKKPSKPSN
UniProt C7C422, 29-270 limits assumed: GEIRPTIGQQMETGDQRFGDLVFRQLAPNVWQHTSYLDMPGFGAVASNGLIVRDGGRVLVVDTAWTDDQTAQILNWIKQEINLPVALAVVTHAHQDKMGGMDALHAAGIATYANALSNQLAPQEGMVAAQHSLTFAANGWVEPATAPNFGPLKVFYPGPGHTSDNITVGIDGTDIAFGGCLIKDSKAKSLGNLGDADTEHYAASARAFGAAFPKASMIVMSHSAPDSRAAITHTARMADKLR

Assay type in all cases: biochemical
In one test the target is IMP-1 (Imipenemase-1) (Serratia marcescens, UniProt P52699). The experiment in a line: Enzyme inhibition assay, IMP-1. The method, then:
(§1) The biological activity of the compounds of the present invention was tested using standard assay protocols.^7 The following representative enzymes NDM-1 (New Delhi metallo-β-lactamase-1), IMP-1 (Imipenemase-1) and VIM-2 (Veronese metallo-β-lactamase-2) were selected from different clinically relevant B1 metallo-β-lactamases.

Test [1] concerns the target NDM-1 (New Delhi metallo-β-lactamase-1) (Klebsiella pneumoniae, UniProt C7C422). The experiment in a line: Enzyme inhibition assay, NDM-1. As to the method:
as §1

The target of test [2] is VIM-2 (Veronese metallo-β-lactamase-2) (Escherichia coli, UniProt Q5U7L7). The experiment in a line: Enzyme inhibition assay, VIM-2. The method, then:
as §1

The structures appear in SMILES notation. Structures were worked out from names or drawings and are uncertain.

For the compound `Cc1cccc2c(-c3cccc(Cl)c3)c(C(=O)O)[nH]c12`, the “pIC50 IMP-1” value against IMP-1 (Imipenemase-1) is given as 5.7. In addition, the “pIC50 NDM-1” value in test [1] stood at 7.6. Moreover, the “pIC50 VIM-2” value in test [2] worked out at 7.
